Results taken from publication PMC4412288, “Crystal Structures of the Carboxyl cGMP Binding Domain of the Plasmodium falciparum cGMP-dependent Protein Kinase Reveal a Novel Capping Triad Crucial for Merozoite Egress” (PLoS Pathogens, 2015).

Chains of the proteins cited; added tags and fusions are not shown.
UniProt Q8I719, whole entry Q532A: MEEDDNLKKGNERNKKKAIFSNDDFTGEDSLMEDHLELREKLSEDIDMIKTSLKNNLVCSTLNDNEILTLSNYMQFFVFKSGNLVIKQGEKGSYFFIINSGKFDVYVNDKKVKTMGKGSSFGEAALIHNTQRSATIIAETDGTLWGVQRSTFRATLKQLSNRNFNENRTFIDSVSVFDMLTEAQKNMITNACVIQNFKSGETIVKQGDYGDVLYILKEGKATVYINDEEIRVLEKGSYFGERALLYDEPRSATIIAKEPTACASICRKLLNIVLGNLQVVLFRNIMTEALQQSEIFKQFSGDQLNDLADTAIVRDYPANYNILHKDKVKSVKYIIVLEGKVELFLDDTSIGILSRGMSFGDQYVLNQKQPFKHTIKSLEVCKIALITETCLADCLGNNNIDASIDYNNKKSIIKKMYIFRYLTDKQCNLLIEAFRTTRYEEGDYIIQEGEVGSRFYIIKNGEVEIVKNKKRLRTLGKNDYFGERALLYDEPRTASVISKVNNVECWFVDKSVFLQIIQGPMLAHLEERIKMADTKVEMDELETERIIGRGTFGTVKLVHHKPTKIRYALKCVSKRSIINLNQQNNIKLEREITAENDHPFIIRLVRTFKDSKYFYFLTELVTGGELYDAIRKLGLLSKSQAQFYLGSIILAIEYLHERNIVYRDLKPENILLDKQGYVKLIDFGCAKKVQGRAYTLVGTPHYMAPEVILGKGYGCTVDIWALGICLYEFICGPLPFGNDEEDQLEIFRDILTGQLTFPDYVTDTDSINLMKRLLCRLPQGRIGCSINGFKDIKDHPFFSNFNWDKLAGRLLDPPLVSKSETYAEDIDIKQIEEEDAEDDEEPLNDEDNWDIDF
UniProt Q8I719, whole entry R484A: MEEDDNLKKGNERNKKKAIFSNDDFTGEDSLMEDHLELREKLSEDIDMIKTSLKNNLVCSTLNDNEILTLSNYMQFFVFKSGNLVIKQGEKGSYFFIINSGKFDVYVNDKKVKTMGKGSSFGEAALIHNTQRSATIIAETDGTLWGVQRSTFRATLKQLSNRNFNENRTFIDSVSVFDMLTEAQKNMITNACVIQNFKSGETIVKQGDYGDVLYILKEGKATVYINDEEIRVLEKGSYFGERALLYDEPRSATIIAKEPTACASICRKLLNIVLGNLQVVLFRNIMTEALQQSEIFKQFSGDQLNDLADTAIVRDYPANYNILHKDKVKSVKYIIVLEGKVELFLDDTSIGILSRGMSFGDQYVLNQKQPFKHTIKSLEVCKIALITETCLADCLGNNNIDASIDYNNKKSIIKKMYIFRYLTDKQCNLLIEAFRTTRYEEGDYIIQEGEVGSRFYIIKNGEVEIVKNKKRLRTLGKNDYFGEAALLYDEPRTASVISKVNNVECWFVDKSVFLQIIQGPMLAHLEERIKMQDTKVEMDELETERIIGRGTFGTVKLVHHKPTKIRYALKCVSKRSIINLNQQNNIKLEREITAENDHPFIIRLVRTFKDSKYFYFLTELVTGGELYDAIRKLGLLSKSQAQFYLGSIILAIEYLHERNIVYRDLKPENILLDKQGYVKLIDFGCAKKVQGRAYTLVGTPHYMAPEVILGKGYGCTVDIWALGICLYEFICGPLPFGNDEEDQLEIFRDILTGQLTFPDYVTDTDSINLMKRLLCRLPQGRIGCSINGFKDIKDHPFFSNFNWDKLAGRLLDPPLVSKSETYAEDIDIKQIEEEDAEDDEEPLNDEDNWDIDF
UniProt Q8I719, whole entry R484A/Q532A/D533A: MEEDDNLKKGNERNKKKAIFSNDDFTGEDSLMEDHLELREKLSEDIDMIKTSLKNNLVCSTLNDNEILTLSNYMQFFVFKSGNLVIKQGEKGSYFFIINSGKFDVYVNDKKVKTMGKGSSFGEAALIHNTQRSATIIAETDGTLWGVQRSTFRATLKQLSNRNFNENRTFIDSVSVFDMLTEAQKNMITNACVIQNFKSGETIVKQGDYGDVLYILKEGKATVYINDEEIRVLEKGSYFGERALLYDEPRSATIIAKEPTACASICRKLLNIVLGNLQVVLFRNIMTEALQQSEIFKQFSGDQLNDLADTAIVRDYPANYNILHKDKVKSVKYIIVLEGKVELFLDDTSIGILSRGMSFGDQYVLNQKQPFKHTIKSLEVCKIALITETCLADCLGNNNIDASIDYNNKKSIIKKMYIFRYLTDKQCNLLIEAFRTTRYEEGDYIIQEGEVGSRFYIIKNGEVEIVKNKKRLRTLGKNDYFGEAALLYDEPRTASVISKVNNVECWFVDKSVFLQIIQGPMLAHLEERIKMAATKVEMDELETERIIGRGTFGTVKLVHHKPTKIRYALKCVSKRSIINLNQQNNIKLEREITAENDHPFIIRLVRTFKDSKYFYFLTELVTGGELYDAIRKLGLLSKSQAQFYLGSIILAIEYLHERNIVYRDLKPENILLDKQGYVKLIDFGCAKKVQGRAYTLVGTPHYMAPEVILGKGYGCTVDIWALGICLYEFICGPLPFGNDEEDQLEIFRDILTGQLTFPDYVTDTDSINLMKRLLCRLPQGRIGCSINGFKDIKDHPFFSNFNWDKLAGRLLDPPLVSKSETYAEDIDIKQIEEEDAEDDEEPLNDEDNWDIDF

What was measured:
PfPKG (1-853) R484A = PfPKG (1-853) R484A (Plasmodium falciparum, UniProt Q8I719, R484A)
PfPKG (1-853) Q532A = PfPKG (1-853) Q532A (Plasmodium falciparum, UniProt Q8I719, Q532A)
[1] = biological target: PfPKG (1-853) R484A/Q532A/D533A (Plasmodium falciparum, UniProt Q8I719, D533A/Q532A/R484A)

Nc1nc2c(ncn2[C@@H]2O[C@@H]3COP(=O)(O)O[C@H]3[C@H]2O)c(=O)[nH]1 [cGMP, Cyclic GMP]
Ka ± SEM (n), activation constant (PfPKG (1-853) R484A): 2–3 μM and 2.1 ± 0.5 μM (2) | Ka ± SEM (n), activation constant (PfPKG (1-853) Q532A): 2–3 μM and 2.8 ± 0.3 μM (2) | Ka ± SEM (n), activation constant [1]: > 1.8 μM and 1.8 ± 0.4 μM (2)

The source holds more than one record for some entries. They are shown here; other results are not. An entry can have further records. The records of an entry differ, and nothing given here explains why; some may be repeats, others may stem from another dose, organism or construct than stated.
